Data as given in PubChem BioAssay AID1224833 (University of Georgia, 2016).
This is one part, drawn at random, of about 12,000 deposited reagents. Over the whole deposit, about 5,600 (46%) were called active. 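Active calls cover z-scores past 1 in both directions, so they include lowered as well as raised rotavirus replication.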 Entries without a mark were called inactive. Reagent sequences are not shown.

Test: 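Human genes whose knock-down alters rotavirus replication in monkey cells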 (primary screen)
System: monkey MA104 kidney cells
Reagents: siRNA pool against human genes, 50 nM
Duration: 48 h knock-down before infection; read 24 h after infection
Challenge: infection with rotavirus strain RV3 two days after transfection; infectious dose for this stage not given
Measurement: 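z-score of rotavirus antigen signal per well, from a fluorescent immunoassay, relative to non-targeting control wells on the same plate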
Scale: z-score vs non-targeting control: higher = more rotavirus replication than with non-targeting control
Rule for the call: In these data the active calls have z-score vs non-targeting control at about -1 or lower, or at about 1 or higher
Meaning of the calls: active = z-score beyond 1 either way; inactive = z-score within 1 of zero

target | z-score vs non-targeting control
PCYT2 (phosphate cytidylyltransferase 2, ethanolamine) | -1.28 (active)
GPR142 (G protein-coupled receptor 142) | -0.64
CYP3A43 (cytochrome P450 family 3 subfamily A member 43) | 0.178
RAB5C (RAB5C, member RAS oncogene family) | 1 (active)
CHAD (chondroadherin) | 0.342
FNIP2 (folliculin interacting protein 2) | -1.83 (active)
MIPOL1 (mirror-image polydactyly 1) | -0.842
PSG6 (pregnancy specific beta-1-glycoprotein 6) | -0.904
NIPAL3 (NIPA like domain containing 3) | 0.819
DNAI1 (dynein axonemal intermediate chain 1) | -1.01 (active)
GPER1 (G protein-coupled estrogen receptor 1) | 0.951
ATP6V0E2 (ATPase H+ transporting V0 subunit e2) | -1.27 (active)
NPAS2 (neuronal PAS domain protein 2) | 0.94
PSMG1 (proteasome assembly chaperone 1) | -0.442
NASP (nuclear autoantigenic sperm protein) | -0.428
GNGT1 (G protein subunit gamma transducin 1) | -1.79 (active)
TXNDC9 (thioredoxin domain containing 9) | -0.971
OSBP (oxysterol binding protein) | -1.47 (active)
PCDHGB6 (protocadherin gamma subfamily B, 6) | -0.446
SNHG28 (small nucleolar RNA host gene 28) | -0.875
IPO7 (importin 7) | -2.03 (active)
CEACAM6 (CEA cell adhesion molecule 6) | -1.52 (active)
RNF212 (ring finger protein 212) | 0.637
TBXT (T-box transcription factor T) | -0.668
BDNF (brain derived neurotrophic factor) | -2.31 (active)
HBS1L (HBS1 like translational GTPase) | -0.833
TSSC4 (tumor suppressing subtransferable candidate 4) | -0.173
RFC4 (replication factor C subunit 4) | -0.0646
LYZL1 (lysozyme like 1) | 2.31 (active)
MED13 (mediator complex subunit 13) | -0.552
MMP26 (matrix metallopeptidase 26) | 2.1 (active)
ZNRD2 (zinc ribbon domain containing 2) | -0.759
STX3 (syntaxin 3) | 1.05 (active)
SLC35G1 | -1.75 (active)
ATOSB (atos homolog B) | -0.468
TLR7 (toll like receptor 7) | -0.832
DDX5 (DEAD-box helicase 5) | 1.53 (active)
DET1 (DET1 partner of COP1 E3 ubiquitin ligase) | -1.62 (active)
ACSS1 (acyl-CoA synthetase short chain family member 1) | -1.66 (active)
HOXC10 (homeobox C10) | 0.602
CORO1A (coronin 1A) | -0.904
HOXC6 (homeobox C6) | 2.06 (active)
FCER1G (Fc epsilon receptor Ig) | -0.782
MEGF8 (multiple EGF like domains 8) | -0.259
RADX (RPA1 related single stranded DNA binding protein, X-linked) | 0.555

Reprinted from the entries so far, 4 entries:
target | z-score vs non-targeting control
IPO7 (importin 7) | -2.03 (active)
CEACAM6 (CEA cell adhesion molecule 6) | -1.52 (active)
RNF212 (ring finger protein 212) | 0.637
TBXT (T-box transcription factor T) | -0.668
